Patent US20260069689A1, “ANTI-SARS-COV-2-SPIKE GLYCOPROTEIN ANTIBODIES AND ANTIGEN-BINDING FRAGMENTS” (Regeneron, published 2026)

B1: mAb14284 (antibody, V domains shown)
VH: QITLKESGPTLVKPTQTLTLTCTFSGFSFSTSGVGVGWIRQPPGKTLEWLALIYWDDDKRYSPSLKSRLTITKDTSKNQVVLTMTNMDPVDTATYFCAHHGIPTIFGYWGQGALVTVSS
VL: QSALTQPASVSGSPGQSITISCTGTSSDLGVFNYVSWYQQHPGKAPKLMIYEVTNRPSGVSNRFSGSKSGNTASLTISGLQAEDEADYYCSSYTTSSTVFGGGTKLTVLG
B2: mAb14235 (antibody, V domains shown)
VH: QITLKESGPTLVKPTQTLTLTCTFSGFSLNTGGVGVGWIRQPPGNALEWLALIYWDDDKRYNPSLKTRLTISKDTSKNQVVLTMTNMDPVDTATYFCAHLTIAVIVDFWGQGTLVTVSS
VL: QSALTQPASVSGSPGQSITISCTATSSDVGTYNYVSWFQHHPGKAPKLMIYEVTNRPSGVSNRFSGSKSGNTASLTISGLQAEDEADYYCSSYTTTSIVFGGGTKLTVLG
B3: mAb14294 (antibody, V domains shown)
VH: EVQLVESGGGLVQPGGSLRLSCAASGFTFSNHWMDWVRQAPGKGLVWVSRINSDGSSTDYADSVRGRFTMSRDNAKNTLYLQMSSLRAEDTAVYYCAREGMIFGAVIIPGWYFDLWGRGALVTVSS
VL: EIVLTQSPGTLSLSPGERATLSCRASQSVSSSQLAWYQQKPGQAPRLLIYGASSRATGIPDRFSGSGSGTDFTLTISRLEPEDFAVYYCQQYDSFGQGTKLEIKR
B4: mAb14312 (antibody)
heavy: not shown
light: QSVLTQPPSVSGAPGQRVTISCTGSSSNIGAGDDVHWYQQLPGTAPKLLIYGNSNRPSGVPDRFSGSKSGTSASLAITGLQAEDEADYYCQSYDSSLSGSVVFGGGTKLTVLGQPKAAPSVTLFPPSSEELQANKATLVCLISDFYPGAVTVAWKADSSPVKAGVETTTPSKQSNNKYAASSYLSLTPEQWKSHRSYSCQVTHEGSTVEKTVAPTECS
B5: mAb15150 (antibody, V domains shown)
VH: EVQLVETGGGLIQPGGSLRLSCAAPGFIVSSNYMSWVRQAPGKGLEWVSLLYPGGSTYYADSVKGRFTISRDNSKNTLYLQMNSLRADDTAVYYCARVLPIVEDHFDYWGQGTLVTVSS
VL: DIQLTQSPSFLSASVGDRVTITCRASQGMSSYLAWYQKKPGKAPKLLIYGATILQSGVPSRFSGSGSGTEFTLTISSLQPEDFATYYCQQLNSDPLYMYTFGQGTKLEIKR
B6: mAb15157 (antibody, V domains shown)
VH: EVQLVESGGALVQPGGSLRLSCAASGFPFTIYAMTWVRQAPGKGLEWVSVITGSGDSTYYADSVKGRFTISRDNSKNTLYLQMNSLRAEDTAVYYCVKTGEGFFYYYYGMDVWGQGTTVTVSS
VL: QSVLTQPPSVSAAPGQKVTISCSGSSSNIGNSYISWYQQLPGTAPKLLIYVNNKRPSGIPDRFSGSKSGTSATLGITGLQTGDEADYYCGTWDSSLSAGVFGSGTKVTVLG
B7: mAb15156 (antibody)
heavy: not shown
light: QSVLTQPPSASGTPGQRVTISCSGSRSNIGINTVNWYQQFPGTALNLLIFSDNQRPSGVPDRFSGSKSGTSASLAISGLQSEDEADYYCAAWDDSLNGPDWVFGGGTKLTVLGQPKAAPSVTLFPPSSEELQANKATLVCLISDFYPGAVTVAWKADSSPVKAGVETTTPSKQSNNKYAASSYLSLTPEQWKSHRSYSCQVTHEGSTVEKTVAPTECS
B8: mAb14283 (antibody, V domains shown)
VH: QVQLQESGPGLVKPSGTLSLTCDVSGGSISSNNWWSWVRQRPGKGLQWIGEIYHNENTNYNPSLKSRVIMSIDKSKNQFSLKLTSVTAADTAVYYCARGDVLDWFDPWGQGTLVTVSS
VL: QSALTQPASVSGSPGQSTTISCTGTSSDVGGYNYVSWYQQYPGKAPKLMIYDVTNRPSGVSHRFSGSKSGNTASLTISGLQAEDEADYYCSSYTSSSTVIFGGGTKLTVLG
B9: mAb14284 (antibody, V domains shown)
VH: QITLKESGPTLVKPTQTLTLTCTFSGFSFSTSGVGVGWIRQPPGKTLEWLALIYWDDDKRYSPSLKSRLTITKDTSKNQVVLTMTNMDPVDTATYFCAHHGIPTIFGYWGQGALVTVSS
VL: QSALTQPASVSGSPGQSITISCTGTSSDLGVFNYVSWYQQHPGKAPKLMIYEVTNRPSGVSNRFSGSKSGNTASLTISGLQAEDEADYYCSSYTTSSTVFGGGTKLTVLG
B10: mAb14285 (antibody, V domains shown)
VH: QVQLVQSGAEVKKPGASVKVSCKASGYTFTGYFIHWVRQAPGQGLEWMGWISPISGGTNYAQKFQGRVTVTRDTSITTAYMELSRLTSDDTAVYHCAREGGTWKGDFDYWGQGTLVTVSS
VL: QSALTQPASVSGSPGQSITISCTGTSSDVESYNLVSWYQQHPGKAPKLMIYEGSKRPSGVSNRFSGSKSGNTASLTISGLQAEDEADYYCSSYAGSSTWVFGGGTKLTVLG
B11: mAb14286 (antibody, V domains shown)
VH: QVQLVQSGAEVKKPGASVKVSCKASGYTFTDYFIHWVRQAPGQGLEWMGWINPTSGGTNYAQKFRGRVTMTRDTSISTAYVELSRLRSDDTALYYCARDLPFYSDTKQFDYWGQGTLVTVSS
VL: QSALTQPASVSGYPGQSITISCTGTSSDVGGYNYVSWYQQHPGKAPKLMIFDVSNRPSGVSNRFSGSKSGNTASLTFSGLQAEDEADYYCSSYTSSSTLVFGGGTKLTVLG
B12: mAb14289 (antibody, V domains shown)
VH: QVQLVQSGPEVKKPGASVKVSCKASGYTFTSYAISWVRQAPGQGLEWMGWISAYNGNTNYAQKLQGRVTMTTDTFTSTAYMELRSLRSDDTAVYYCAVPADHITFDYWGQGTLVTVSS
VL: EIVLTQSPGTLSLSPGERATLSCRASQSVSSYLAWYQQKPGQAPRLLIHGASSRATGIPDRFSGSGSGTDFTLTISRLEPEDFAVYYCQQYGSSFLTFGGGTKVEIKR
B13: mAb14292 (antibody, V domains shown)
VH: EVQLVESGGGLVQPGGSLRLSCVASGFAFSTYEMNWVRQAPGKGLEWVSYISSSGSTIYYADSVKGRLTISRDNVKNSLYLQMNSLRVEDTAIYYCARDAIRNNDILTDPATFDPWGQGTLVTVSS
VL: not shown
B14: mAb14294 (antibody, V domains shown)
VH: EVQLVESGGGLVQPGGSLRLSCAASGFTFSNHWMDWVRQAPGKGLVWVSRINSDGSSTDYADSVRGRFTMSRDNAKNTLYLQMSSLRAEDTAVYYCAREGMIFGAVIIPGWYFDLWGRGALVTVSS
VL: EIVLTQSPGTLSLSPGERATLSCRASQSVSSSQLAWYQQKPGQAPRLLIYGASSRATGIPDRFSGSGSGTDFTLTISRLEPEDFAVYYCQQYDSFGQGTKLEIKR
B15: mAb14312 (antibody, V domains shown)
VH: EVQLVESGGGLVQPGGSLRLSCAASGFTVSRSYMTWVRQAPGKGLEWVSVIFTGGRTDHADSVKGRFTISRHNSKNTLYLQMNSLRTEDTAVYYCARVAIVGATGAFDIWGQGTMVTVSS
VL: QSVLTQPPSVSGAPGQRVTISCTGSSSNIGAGDDVHWYQQLPGTAPKLLIYGNSNRPSGVPDRFSGSKSGTSASLAITGLQAEDEADYYCQSYDSSLSGSVVFGGGTKLTVLG
B16: mAb14313 (antibody, V domains shown)
VH: EVQLVESGGGLVQPGRSLRLSCVASGFTFDDSAMHWVRQPPGKGLEWVSGISWNSGIIGYAESVKGRFIISRDNAKNSLFLHMRGLRPEDTAVYYCARDRLELSYYYYGMDVWGQGTTVTVSS
VL: QSVLTQPPSASGTPGQRVTISCSGSSSNIGSNTVNWYQQFPGTAPRLLIYSNDQRPSGIPDRFSGSKSGTSASLAISGLQSEDEADYYCSTWDDSLNGAVFGGGTQLTVLG
B17: mAb14315 (antibody, V domains shown)
VH: QVQLVQSGAEVKKPGSSVKVSCKASGDTFSTYAINWVRQAPGQGLEWMGRFIHIFGTANYAQKFQGRVTITADESTSTAYMELRSLRSEDTAVYYCARDGVDYGDYRPDYWGQGTLVTVSS
VL: EIVLTQSPGTLSLSPGERATLSCRASQSVSSNYLAWYQQKPGQAPRLLIYGASSRATGIPERFSGSGSGTDFTLTISRLEPEDFAVYYCQQYGSSLYTFGQGTKLEIKR

Columns and labels:
[1] = biological target: SARS-CoV-2 D614G spike protein variant (SARS-CoV-2); test: cell-based or functional assay
[2] = biological target: Omicron variant SARS-CoV-2 spike glycoprotein (SEQ ID NO: 1073) (SARS-CoV-2); test: cell-based or functional assay
[3] = biological target: SARS-CoV-2 RBD.mmh (Spike amino acids Arg319-Phe541 with C-terminal myc-myc-6-Histidine tag) (SARS-CoV-2, UniProt P0DTC2 319-541)
[4] = biological target: T1, SARS-COV-2 RBD-MMH (SARS-COV-2 RBD extracellular domain with C-terminal myc-myc-hexahistidine tag) (SARS-CoV-2); test: SPR 37C, mAb captured, 90 nM RBD-MMH, dissociation pH 6.0
[5] = biological target: T1, SARS-COV-2 RBD-MMH (SARS-COV-2 RBD …); test: SPR 37C, mAb captured, 90 nM RBD-MMH, dissociation pH 7.4

Binder | IC50 (pseudoparticle neutralization) [1] [pM] | IC50 FC (fold change relative to D614G control) [2] [fold] | log10 FC of IC50 relative to D614G control [2] [log10 fold] | IC50 (pseudoparticle neutralization) [2] [pM] | % Blocking at 100 nM mAb concentration [3] [%] | RBD.mmh Bound at pH 7.4 (RU) [4] [RU] | RBD.mmh Bound at pH 7.4 (RU) [5] [RU]
B1 | 8.25 | 1.25 | 0 |  |  |  | 
B2 | 3.79 | 1.81 | 0.26 | 6.84 |  |  | 
B3 | 5 | 1420 | 3.15 | 6.67 |  |  | 
B4 | 1 |  | 3.72 | 0.794 |  |  | 
B5 | 0.852 |  | 2.59 | 1.23 |  |  | 
B6 | 1.01 |  | 4.3 | 1.15 |  |  | 
B7 | 0.462 |  | 1.87 | 0.496 |  |  | 
B8 |  |  |  |  | 97 | 86.3 | 87.7
B9 |  |  |  |  | 98 | 144 | 147
B10 |  |  |  |  | 96 | 77.1 | 64.2
B11 |  |  |  |  | 94 | 87.2 | 84.3
B12 |  |  |  |  | 98 | 84 | 86.1
B13 |  |  |  |  | 95 | 74 | 73.4
B14 |  |  |  |  | 94 | 91.1 | 83.2
B15 |  |  |  |  | 98 | 94.8 | 95.2
B16 |  |  |  |  | 63 | 97.1 | 94.2
B17 |  |  |  |  | 61 | 82.5 | 83.3
